Measured values reported in US6627772B2, “Preparation of N-[2-(carboxymethoxy) ethyl]-N-(carboxymethyl) glycine” (The Dow Chemical Company, priority 1999, dated 2003).

Test system: standardized sludge containing municipal waste treatment plant organisms
Assay: ASTM D2667 semi-continuous activated sludge biodegradability test (loss of chelation followed by copper titration)
Conditions: for Time for greater than 80% loss of chelation: ASTM D2667, copper titration value, analysis daily; for Inherent biodegradability (result in words): ASTM D2667 semi-continuous activated sludge test

SMILES	Time for greater than 80% loss of chelation [days]	Inherent biodegradability (result in words)	Inherent biodegradability (result in words) (listed as N-[2-(carboxymethoxy)ethyl]-N-(carboxymethyl)glycine)
O=C(O)COCCN(CC(=O)O)CC(=O)O [(IX), N-[2-(carboxymethoxy)ethyl]-N-(carboxymethyl)glycine]	30	inherently biodegradable	will biodegrade
O=C(O)CN(CC(=O)O)CC(=O)O [NTA (std.), nitrilotriacetate, reference compound]	3	–	–
